Pooled drug test results. Numbers come from NIAID ChemDB, via PubChem.

Shared fields: growth or infection tests; species: Mycobacterium tuberculosis

A number after MIC or MFC names an inhibition level or a share of isolates. ECn: concentration that inhibits the pathogen or its effect by n%. Inhibition is in % at the dose shown (toxicity tests: loss of growth or viability). MIC bound comes from a single tested concentration. An empty or dashed field is not shown. Lines come from different laboratories, so protocols vary. Two numbers with a dash give a range or band.

structure | strain or isolate | method | read-out | dose | result
Cc1cc(C(=O)N=Nc2c(O)[nH]c3ccccc23)n[nH]1 | H37Rv | resazurin | MIC50 | - | >50 µg/mL
O=C(CN1CCCC1)N/N=C\C(=O)c1ccc(Sc2ccccc2)cc1 | - | - | MIC | - | >50 µg/mL
CC(=O)OC1C(O[C@H]2CC[C@]34O[C@]35CC[C@]3(C)C(C6(C)CC[C@@H](C(C)(C)O)O6)[C@@H](O)CC3(C)[C@@H]5CC(OC3OC(CO)C(O)C(O)C3O)C4C2(C)C)OCC(O)C1O | H37Rv | BACTEC | MIC bound | - | >12.5 µg/mL
COc1cc2ccnc3c2c(c1OC(=O)c1ccc(OC(F)(F)F)cc1)N(C)C=C3 | H37Rv | - | MIC | - | >128 µg/mL
CN1C(=O)C(=O)N(C)C1=S | B814 | - | MIC | - | 20 µg/mL
CCN(CC)CC(=O)N/N=C\C(=O)c1ccc(-c2ccccc2)cc1 | - | - | MIC | - | >50 µg/mL
CC(Oc1ccc(-c2nc(N)nc(N)n2)cc1)c1ccc(F)cc1 | H37Rv | resazurin | MIC | - | 67.81 µM
O=C(N=Nc1c(O)[nH]c2ccccc12)c1ccc(Cl)cc1 | H37Ra | resazurin | MIC50 | - | >50 µg/mL
N#CCCCSc1cc(C(=N)N)ccn1 | 331/81 | - | MIC | - | >1000 µM
COc1ccc(NC(=S)NNC(=O)c2sc3ccc(Cl)cc3c2Cl)cc1 | H37Rv | BACTEC | inhibition | 6.25 µg/mL | 0%
O=C(N/N=C/c1ccccc1)c1cccnc1 | - | - | MIC | - | 1 µg/mL
Fc1ccc(-c2csc(CN=Cc3cn(Cc4ccc(Cl)cc4Cl)c4ccccc34)n2)cc1 | H37Rv | agar | MIC | - | >12.5 µg/mL
N#Cc1cc(SCC(=O)NN)ccn1 | 331/81 | - | MIC | - | 500 µM
COc1cccc2oc([N+](=O)[O-])cc12 | H37Rv | resazurin | inhibition | 6.25 µg/mL | 100%
Nc1nc(N)nc(-c2ccc(OCc3ccc(F)cc3)cc2)n1 | H37Rv | resazurin | MIC | - | 3.95 µM
O=C(CN1CCCC1)N/N=C\C(=O)c1ccc(-c2ccccc2)cc1 | - | - | MIC | - | >50 µg/mL
S=C(Nc1ccc(Cl)cc1)c1ccccn1 | H37Rv | - | inhibition | 6.25 µg/mL | 98%
CCCCCc1ccc(C(=O)Oc2c(OC)cc3ccnc4c3c2N(C)C=C4)cc1 | H37Rv | - | MIC | - | >128 µg/mL
COc1ccc(/C=N/NC(=O)c2ccncc2)cc1OC | - | - | MIC | - | 1 µg/mL
CC1(C)NC(=S)NC1=O | B814 | - | MIC | - | >100 µg/mL
CCN(CC)C(=O)Oc1c(OC)cc2ccnc3c2c1N(C)C=C3 | H37Rv | - | MIC | - | >128 µg/mL
CN=C(NC)c1ccc(NC(=O)/C=C/C(=O)Nc2ccc(C(=NC)NC)cc2)cc1 | H37Rv | resazurin | inhibition | 6.25 µg/mL | 46%
NCCCC(N)CC(=O)NCC1NC(=O)C(CO)NC(=O)C(NC(=O)CC(N)CCCN)CNC(=O)C(C2CCN=C(N)N2)NC(=O)/C(=C/NC(N)=O)NC1=O | Isolate VIM-R/5 | - | MIC | - | 20 µg/mL
CC1(O)OC(=O)CC2(C)OC12 | H37Rv | resazurin | inhibition | 6.25 µg/mL | -1%
CC1(C)NC(=S)NC1=S | B814 | - | MIC | - | >100 µg/mL
Cn1c(SCc2ccccc2)nnc1-c1ccc(N)cc1 | H37Rv | - | EC50 | - | >6.25 µg/mL
Clc1cccc(Nc2nnc(-c3sc4ccc(Cl)cc4c3Cl)s2)c1 | H37Rv | BACTEC | inhibition | 6.25 µg/mL | 0%
CCCN1CCN(c2cc(=O)c3nc4c(oc3c2)c2c(=O)c3c(O)c(C)c5c(c34)=C(O)[C@@](C)(O/C=C/[C@H](OC)[C@@H](C)[C@@H](OC(C)=O)[C@H](C)[C@H](O)[C@H](C)[C@@H](O)[C@@H](C)/C=C/C=C(/C)C(=O)N2)O5)CC1 | - | - | MIC50 | - | 0.0125–1.56 µg/mL
O=C1c2cccc([N+](=O)[O-])c2C(=O)N1c1cccc(O)c1 | H37Rv | resazurin | MIC50 | - | >50 µg/mL
CCCCCCCC/C=C/CCCCCCCCC(=O)Oc1c(OC)cc2ccnc3c2c1N(C)C=C3 | H37Rv | - | MIC | - | >128 µg/mL
Cc1ccc(S(=O)(=O)NC2CCCCCCC2)cc1 | H37Rv | BACTEC | inhibition | 12.5 µg/mL | -25%
CC1(C)[C@@H]2CC[C@@]1(C)[C@@H](NCCNCC(c1ccccc1)c1ccccc1)C2 | H37Rv | - | MIC | - | 6 µM
COc1ccccc1Nc1nnc(-c2sc3ccc(Cl)cc3c2Cl)s1 | H37Rv | BACTEC | inhibition | 6.25 µg/mL | 0%
CN(C)c1ccc(/C=N/NC(=O)c2ccncc2)cc1 | - | - | MIC | - | 1 µg/mL
O=C(CN1CCOCC1)N/N=C\C(=O)c1ccc(Oc2ccccc2)cc1 | - | - | MIC | - | >50 µg/mL
CCC1CN2CCc3cc(OC)c(OC)cc3C2CC1CC1c2cc(OC)c(OC)cc2CCN1N=O | H37Rv | BACTEC | MIC bound | - | >12.5 µg/mL
CCOC(=O)CSc1ccnc(C#N)c1 | 331/81 | - | MIC | - | 1000 µM
O=C1OC2CCCCC1CC2 | H37Rv | BACTEC | MIC bound | - | >12.5 µg/mL
O=C(N=Nc1c(O)[nH]c2ccccc12)c1ccc(O)cc1O | H37Ra | resazurin | MIC50 | - | >50 µg/mL
C/C=N/NC(=O)c1ccncc1 | - | - | MIC | - | 0.1 µg/mL
CC1COc2c(N3CCN(C)CC3)c(F)cc3c(=O)c(C(=O)O)cn1c23 | - | - | MIC50 | - | 0.5–1.3 µg/mL
c1ccc(C(CCNCCNC2CCCCCCC2)c2ccccc2)cc1 | H37Rv | - | MIC | - | 3 µM
C1Cn2nnnc2N1 | H37Rv | BACTEC | inhibition | 12.5 µg/mL | 0%
NC(=S)c1cc(N2CCCCC2)ccn1 | 331/81 | - | MIC | - | 500 µM
NC[C@@H]1O[C@H](O[C@H]2[C@@H](O)[C@H](O[C@@H]3[C@@H](O)[C@H](N)C[C@H](N)[C@H]3O[C@H]3O[C@H](CO)[C@@H](O)[C@H](O)[C@H]3N)O[C@@H]2CO)[C@H](N)[C@@H](O)[C@@H]1O | - | - | MIC | - | 0.09–1.5 µg/mL
COc1cccc2c1cc([N+](=O)[O-])c1c(C(=O)O)cc3c(c12)OCO3 | H37Rv | resazurin | MIC bound | - | >6.25 µg/mL
N#Cc1cc(N2CCCCC2)ccn1 | 331/81 | - | MIC | - | 1000 µM
Cc1cccc(NC(=S)NNC(=O)c2sc3ccc(Cl)cc3c2Cl)c1C | H37Rv | BACTEC | inhibition | 6.25 µg/mL | 28%
COc1ccccc1CCNCCN[C@@H]1C[C@@H]2C[C@H]([C@H]1C)C2(C)C | H37Rv | - | MIC | - | 5 µM
Cn1c(SCc2ccc(Cl)cc2Cl)nnc1-c1ccc(N)cc1 | H37Rv | - | inhibition | 6.25 µg/mL | <50%
CN(C)c1ccc(/C=N/NC(=O)c2cccnc2)cc1 | - | - | MIC | - | 10 µg/mL
Clc1ccc(CSc2nnc(-c3ccc(N=Cc4c(Cl)cccc4Cl)cc3)n2-c2ccccc2)c(Cl)c1 | H37Rv | - | EC50 | - | <6.25 µg/mL
COc1c2c(cc3c1C1Oc4c(ccc(O)c4CC=C(C)C)C1CO3)OC(C)(C)C=C2 | ETA-R | - | MIC | - | 12.5 µg/mL
Nc1ccc(-c2nnc(SCc3ccc([N+](=O)[O-])cc3)n2-c2ccccc2)cc1 | H37Rv | - | inhibition | 6.25 µg/mL | <50%
O=C(N=Nc1c(O)[nH]c2ccccc12)c1cncc(Br)c1 | H37Rv | resazurin | MIC50 | - | >50 µg/mL
CCOC(=O)c1cc(C2CCN(Cc3ccccc3)C2=O)c(C(=O)/C=C(\C)N)[nH]1 | H37Rv | resazurin | MIC bound | - | >6.25 µg/mL
O=C(N/N=C/c1ccc(O)cc1)c1cccnc1 | - | - | MIC | - | 10–1000 µg/mL
Cc1c(O)ccc2c(O)c(NC(=O)c3ccc4c(c3)CCC(C)(C)O4)c(=O)oc12 | H37Rv | BACTEC | inhibition | 12.5 µg/mL | -5%
O=[N+]([O-])c1ccccc1Nc1nnc(-c2sc3ccc(Cl)cc3c2Cl)s1 | H37Rv | BACTEC | inhibition | 6.25 µg/mL | 98%
COc1cc2ccnc3c2c(c1OC(=O)c1cccc(F)c1F)N(C)C=C3 | H37Rv | - | MIC | - | >128 µg/mL
O=C(CN1CCCCC1)N/N=C\C(=O)c1ccc(Sc2ccccc2)cc1 | - | - | MIC | - | >50 µg/mL
NCCC[C@H](N)CC(=O)N[C@H]1CNC(=O)[C@H]([C@H]2C[C@H](O)NC(N)=N2)NC(=O)/C(=C/NC(N)=O)NC(=O)[C@H](CO)NC(=O)[C@H](CO)NC1=O | Isolate VIM-S | - | MIC | - | 5 µg/mL
Cc1nn2c(=O)c3c([N+](=O)[O-])c(C)nn3c(=O)c2c1[N+](=O)[O-] | H37Rv | resazurin | inhibition | 6.25 µg/mL | 8%
Cc1ccn2c(C(=O)NCCCC(=O)OCc3ccccc3)c(C)nc2c1 | H37Rv | resazurin | MIC | - | 5.85 µM
C/C=C/C=C/[C@@H]1O[C@](O)([C@H](OC)C(=O)NC/C=C/C=C(/C)[C@@H](OC)[C@@H](C)[C@@H]2O[C@H](/C=C/C=C/C=C(\C)C(=O)c3c(O)cc[nH]c3=O)[C@H](O)[C@@H]2O)[C@H](O)[C@H](O)C1(C)C | H37Rv | BACTEC | MIC | - | ≥12.5 µg/mL
N#CCCSc1cc(C#N)ccn1 | 331/81 | - | MIC | - | 250 µM
COc1cc2ccnc3c2c(c1OC(=O)c1ccc(C(C)(C)C)cc1)N(C)C=C3 | H37Rv | - | MIC | - | >128 µg/mL
C[C@H](NCCNC[C@@H]1CC[C@H]2C[C@@H]1C2(C)C)C1CCCCC1 | H37Rv | - | MIC | - | 1 µM
CC1(C)N=C([Se])NC1=O | B814 | - | MIC | - | 0.6 µg/mL
O=C1CC[C@@H](C(=O)O)N1 | H37Rv | BACTEC | MIC | - | ≥128 µg/mL
O=C(N/N=C/[C@H](O)[C@@H](O)[C@H](O)[C@H](O)CO)c1ccncc1 | - | - | MIC | - | 0.1–1 µg/mL
Nc1nc(N)nc(-c2ccc(OCc3cccc(Cl)c3)cc2)n1 | H37Rv | resazurin | MIC | - | 1.57 µM
CC(C)=CCC/C(C)=C/CNCCNC1C2CC3CC(C2)CC1C3 | H37Rv | - | MIC | - | 0.2 µM
O=C(N/N=C/c1ccc([N+](=O)[O-])cc1)c1cccnc1 | - | - | MIC | - | 1–100 µg/mL
CCCCCCCCO[C@H]1OC(CS[C@H]2O[C@H](CO)[C@@H](O)[C@@H]2O)[C@@H](O)[C@@H]1O | H37Ra | - | MIC | - | 4 µg/mL
CCC(CO)NCCNC1CCCCC1 | H37Rv | - | MIC | - | 300 µM
O=C(O)c1ccc(N2C(=O)c3cccc([N+](=O)[O-])c3C2=O)cc1O | H37Rv | resazurin | MIC50 | - | 0.39 µg/mL
COc1ccc(C2=C/C(=C3\C(=O)C=C(C)OC3=O)SS2)cc1 | H37Rv | BACTEC | inhibition | 12.5 µg/mL | 0%
O=C(NNC(=S)Nc1ccccc1[N+](=O)[O-])c1sc2ccc(Cl)cc2c1Cl | H37Rv | BACTEC | inhibition | 6.25 µg/mL | 0%
Cn1c(O)c(N=NC(=O)c2ccc(O)cc2O)c2ccccc21 | H37Rv | resazurin | MIC50 | - | >50 µg/mL
NNC(=O)C1CCNCC1 | - | - | MIC | - | >40 µg/mL
Cc1ccc(Cl)c(NC(=S)NNC(=O)c2sc3ccc(Cl)cc3c2Cl)c1 | H37Rv | BACTEC | inhibition | 6.25 µg/mL | 0%
Cc1cc(-c2ccc(N=Nc3cc(S(=O)(=O)[O-])c4cccnc4c3O)c(C)c2)ccc1N=Nc1cc(S(=O)(=O)[O-])c2cccnc2c1O.[Na+].[Na+] | H37Rv | BACTEC | inhibition | 12.5 µg/mL | 0%
CC(Oc1ccc(-c2nc(N)nc(N)n2)cc1)C1CCCC1 | H37Rv | resazurin | MIC | - | 245 µM
Cc1cc(N/N=C/c2ccccn2)nc2c(C)cccc12 | H37Rv | BACTEC | MIC bound | - | >12.5 µg/mL
COc1cc2ccnc3c2c(c1OC(=O)c1cccc(C)c1)N(C)C=C3 | H37Rv | - | MIC | - | >128 µg/mL
CS(=O)(=O)O.O=C(OC1C2C=COC(OC3OC(CO)C(O)C(O)C3O)C2C2(CO)OC12)c1ccc(O)cc1 | H37Rv | BACTEC | inhibition | 12.5 µg/mL | -20%
Fc1ccc(C=Nc2ccc(-c3nnc(SCc4ccc(Cl)cc4Cl)n3-c3ccccc3)cc2)cc1 | H37Rv | - | inhibition | 6.25 µg/mL | <50%

Again, the opening 7 rows:

Cc1cc(C(=O)N=Nc2c(O)[nH]c3ccccc23)n[nH]1 ; strain or isolate: H37Rv ; method: resazurin ; read-out: MIC50 ; result: >50 µg/mL
O=C(CN1CCCC1)N/N=C\C(=O)c1ccc(Sc2ccccc2)cc1 ; read-out: MIC ; result: >50 µg/mL
CC(=O)OC1C(O[C@H]2CC[C@]34O[C@]35CC[C@]3(C)C(C6(C)CC[C@@H](C(C)(C)O)O6)[C@@H](O)CC3(C)[C@@H]5CC(OC3OC(CO)C(O)C(O)C3O)C4C2(C)C)OCC(O)C1O ; strain or isolate: H37Rv ; method: BACTEC ; read-out: MIC bound ; result: >12.5 µg/mL
COc1cc2ccnc3c2c(c1OC(=O)c1ccc(OC(F)(F)F)cc1)N(C)C=C3 ; strain or isolate: H37Rv ; read-out: MIC ; result: >128 µg/mL
CN1C(=O)C(=O)N(C)C1=S ; strain or isolate: B814 ; read-out: MIC ; result: 20 µg/mL
CCN(CC)CC(=O)N/N=C\C(=O)c1ccc(-c2ccccc2)cc1 ; read-out: MIC ; result: >50 µg/mL
CC(Oc1ccc(-c2nc(N)nc(N)n2)cc1)c1ccc(F)cc1 ; strain or isolate: H37Rv ; method: resazurin ; read-out: MIC ; result: 67.81 µM